Results of unrelated studies side by side (data: NIAID ChemDB).

All rows: tests in culture; agent: Candida albicans; method: broth dilution; endpoint: MIC100

MIC50, MIC90 and the like: level of inhibition, or share of isolates inhibited. Blank or dashed fields: not listed here. Lines come from different laboratories, so protocols vary.

| smiles | strain or isolate | result |
|---|---|---|
| C[C@H]1[C@H](O)[C@@H](C)/C=C/C=C/C=C/C=C/C=C/C=C/C=C/[C@H](O[C@@H]2O[C@H](C)[C@@H](O)[C@H](N)[C@@H]2O)C[C@@H]2O[C@](O)(C[C@@H](O)C[C@@H](O)CC[C@H](O)[C@@H](O)C[C@@H](O)CC(=O)O[C@H]1C)C[C@H](O)[C@H]2C(=O)O | Clinical isolate | <0.3 µg/mL |
| O=C(O[C@@H]1COC(=O)c2cc(O)c(O)c(O)c2-c2c(cc(O)c(O)c2O)C(=O)OC1C1OC(=O)c2cc(O)c(O)c(O)c2-c2c(O)c(O)c(O)c3c2C(=O)OC1[C@H]3O)c1cc(O)c(O)c(O)c1 | ATCC 64548 | 580 µg/mL |
| Nc1[nH]c(=O)nc2oc3c(Br)cc(Br)cc3c(=O)c12 | MTCC 227 | 500 µg/mL |
| O=C(Cc1ccc(Cl)cc1)Nc1ccc(Cc2nc3ccccc3s2)cc1 | ATCC 10231 | 25 µg/mL |
| Nc1[nH]c(=S)nc2oc3ccc(Cl)cc3c(=O)c12 | MTCC 227 | 250 µg/mL |
| CCC(C)Oc1ccc(C(=O)Nc2ccc(Cc3nc4ccccc4s3)cc2)cc1 | ATCC 10231 | 25 µg/mL |
| CC1=CCC(O)(C(C)C)CC1 | ATCC 14053 | 310 µg/mL |
| O=C(Cc1ccc(F)cc1)Nc1ccc(Cc2nc3ccccc3s2)cc1 | ATCC 10231 | 50 µg/mL |
| O=C1N[C@@H](Cc2c[nH]c3ccccc23)C(=O)N2CCC[C@@H]12 | MTCC 277 | 8 µg/mL |
| O/N=C\c1ccc(O)cc1 | - | >7290 µM |
| Cc1ccc(CC(=O)Nc2ccc(Cc3nc4ccccc4s3)cc2)cc1 | ATCC 10231 | 25 µg/mL |
| Nc1[nH]c(=O)nc2oc3ccc(Cl)cc3c(=O)c12 | MTCC 227 | 250 µg/mL |
| C[C@H]1[C@H](O)[C@@H](C)/C=C/C=C/C=C/C=C/C=C/C=C/C=C/[C@H](O[C@@H]2O[C@H](C)[C@@H](O)[C@H](N)[C@@H]2O)C[C@@H]2O[C@](O)(C[C@@H](O)C[C@@H](O)CC[C@H](O)[C@@H](O)C[C@@H](O)CC(=O)O[C@H]1C)C[C@H](O)[C@H]2C(=O)O | ATCC 90028 | 0.5 µM |
| Nc1[nH]c(=S)nc2oc3ccc([N+](=O)[O-])cc3c(=O)c12 | MTCC 227 | 500 µg/mL |
| COc1ccc(CCC(=O)Nc2ccc(Cc3nc4ccccc4s3)cc2)cc1 | ATCC 10231 | 25 µg/mL |
| O=C1N[C@H](Cc2ccccc2)C(=O)N2CCC[C@H]12 | MTCC 277 | 128 µg/mL |

Repeating the first 2 entries:

smiles | strain or isolate | result
C[C@H]1[C@H](O)[C@@H](C)/C=C/C=C/C=C/C=C/C=C/C=C/C=C/[C@H](O[C@@H]2O[C@H](C)[C@@H](O)[C@H](N)[C@@H]2O)C[C@@H]2O[C@](O)(C[C@@H](O)C[C@@H](O)CC[C@H](O)[C@@H](O)C[C@@H](O)CC(=O)O[C@H]1C)C[C@H](O)[C@H]2C(=O)O | Clinical isolate | <0.3 µg/mL
O=C(O[C@@H]1COC(=O)c2cc(O)c(O)c(O)c2-c2c(cc(O)c(O)c2O)C(=O)OC1C1OC(=O)c2cc(O)c(O)c(O)c2-c2c(O)c(O)c(O)c3c2C(=O)OC1[C@H]3O)c1cc(O)c(O)c(O)c1 | ATCC 64548 | 580 µg/mL